A mixed list of measured activities; the numbers were collected in NIAID ChemDB.

All rows: enzyme or target tests; species: HIV-1; protein: Protease; read by: HPLC; endpoint: IC50

Lines come from different laboratories, so protocols vary.

SMILES | conditions | result
C=C(C)[C@@H]1CC[C@]2(C(=O)O)CC[C@]3(C)[C@H](CC[C@@H]4[C@@]5(C)CC[C@H](OC(=O)CC(=O)O)C(C)(C)C5CC[C@]43C)[C@@H]12 |  | 6 µM
CC(C)(C)OC(=O)N[C@H](Cc1ccc(O)cc1)/C(O)=C(\C#N)c1c(F)c(F)c(F)c(F)c1F |  | 3.5 µM
CC1(C)CC[C@]2(C(=O)O)CC[C@]3(C)C(=CCC4[C@@]5(C)CC/C(=N\OC(=O)CCCCC(=O)O)C(C)(C)C5CC[C@]43C)C2C1 |  | 5.5 µM
CC(C)[C@H](NC(=O)CCc1nc2ccccc2[nH]1)C(=O)N[C@@H](Cc1ccccc1)[C@H](O)CNC[C@@H](O)[C@H](Cc1ccccc1)NC(=O)OC(C)(C)C | pH 5.5 | <10 µM
C=C(C)[C@@H]1CC[C@]2(C(=O)O)CC[C@]3(C)[C@H](CC[C@@H]4[C@@]5(C)CC[C@H](OC(=O)CCC(=O)OC)C(C)(C)C5CC[C@]43C)[C@@H]12 |  | 40 µM
CC(C)(C)OC(=O)N[C@@H](Cc1ccc2ccccc2c1)C(=O)NCC[C@@H](CO)NC(=O)[C@H](Cc1ccc2ccccc2c1)NC(=O)OC(C)(C)C |  | >5 µM
CC(C)(C)OC(=O)N[C@@H](Cc1ccccc1)C(=O)CN(Cc1ccccc1)CC(O)[C@H](Cc1ccccc1)NC(=O)OC(C)(C)C | pH 5.5 | >10 µM
Cc1ccc(S(=O)(=O)NC(N)=NCCC[C@H](NC(=O)N2c3ccccc3CCc3ccccc32)C(=O)O)cc1 |  | 220 µM
CC(C)(C)OC(=O)N[C@@H](Cc1ccccc1)[C@H](O)CN[C@H](Cc1ccccc1)C(O)CNC(=O)OCc1ccccc1 | pH 5.5 | >10 µM
CSCC[C@H](NC(=O)[C@H](CO)N(Cc1ccccc1)C(=O)[C@H](CC(C)C)NC(=O)OCc1ccccc1)C(=O)NC(C)(C)C |  | 0.98 µM
C=C(C)[C@@H]1CC[C@]2(C(=O)O)CC[C@]3(C)[C@H](CC[C@@H]4[C@@]5(C)CC[C@H](O)C(C)(C)[C@@H]5CC[C@]43C)[C@@H]12 |  | 9 µM
Cc1ccc(S(=O)(=O)NC(N)=NCCC[C@H](NC(=O)OCc2ccccc2)C(=O)O)cc1 |  | >>500 µM
COC(=O)[C@]12CCC(C)(C)C[C@H]1C1=CC[C@@H]3[C@@]4(C)CC/C(=N\O)C(C)(C)[C@@H]4CC[C@@]3(C)[C@]1(C)CC2 |  | 9.5 µM
COC(=O)N[C@@H](C(=O)N[C@@H](Cc1ccccc1)[C@H](O)CNC[C@@H](O)[C@H](Cc1ccccc1)NC(=O)OC(C)(C)C)C(C)(C)C | pH 5.5 | ~10 µM
NC(=O)NCCC[C@H](NC(=O)OCC1c2ccccc2-c2ccccc21)C(=O)O |  | 30 µM
CC(C)(C)OC(=O)N[C@@H](Cc1ccccc1)[C@H](O)CNC[C@@H](O)[C@H](Cc1ccccc1)NC(=O)OC1(C)CCC1 | pH 5.5 | <10 µM
Cc1ccc(S(=O)(=O)NC(N)=NCCC[C@H](NC(=O)OCC2c3ccccc3-c3ccccc32)C(N)=O)cc1 |  | 4 µM
CN[C@H](C(=O)C[C@H](CCC[C@@H](CO)N(C(C)C)S(=O)(=O)c1ccc(N)cc1)C(F)(F)F)C(c1ccccc1)c1ccccc1 |  | 0.000131 µM
C/C=C(/CC[C@@H](C)[C@H]1CC[C@H]2[C@@H]3CC=C4C[C@@H](O)CC[C@]4(C)[C@H]3CC[C@]12C)C(C)C |  | >100 µM
CC(C)[C@H](NC(=O)c1ccc2ccccc2c1)C(=O)N[C@@H](Cc1ccccc1)[C@H](O)CNC[C@@H](O)[C@H](Cc1ccccc1)NC(=O)OC(C)(C)C | pH 5.5 | <10 µM
Nc1ccc(C[C@H](NC(=O)OCC2c3ccccc3-c3ccccc32)C(=O)NCC[C@@H](CO)NC(=O)[C@H](Cc2ccc(N)cc2)NC(=O)OCC2c3ccccc3-c3ccccc32)cc1 |  | >5 µM
C[C@@H]1CC[C@]2(C(=O)O)CC[C@]3(C)C(=CCC4[C@@]5(C)CC[C@H](OC(=O)CCCC(=O)O)C(C)(C)C5CC[C@]43C)C2[C@H]1C |  | 4 µM
CSCC[C@H](NC(=O)[C@H](CCO)NCc1ccccc1)C(=O)NC(C)(C)C |  | 2.643 µM
CCCN([C@H](CO)CCC[C@H](C)NC(=O)[C@@H](NC(=O)OC)C(c1ccccc1)c1ccccc1)S(=O)(=O)c1ccc(CO)cc1 |  | 0.002581 µM
CC1(C)CC2C3=CCC4[C@@]5(C)CC[C@H](OC(=O)CCCCC(=O)O)C(C)(C)C5CC[C@@]4(C)[C@]3(C)CC[C@@]2(C)[C@H](OC(=O)CCCCC(=O)O)C1 |  | 2.3 µM
COc1ccc(S(=O)(=O)NC(N)=NCCC[C@H](NC(=O)OCC2c3ccccc3-c3ccccc32)C(=O)O)cc1 |  | 40 µM
CC(C)[C@H](NC(=O)[C@H](C)N)C(=O)N[C@@H](Cc1ccccc1)[C@H](O)CNC[C@@H](O)[C@H](Cc1ccccc1)NC(=O)OC(C)(C)C | pH 5.5 | <10 µM
Cc1ccc(S(=O)(=O)NC(N)=NCCC[C@H](NC(=O)OCC2c3ccccc3-c3ccccc32)C(=O)OCCO)cc1 |  | 55 µM
CC(C)(C)OC(=O)N[C@@H](Cc1ccccc1)C(=O)NCCCC[C@@H](CO)NC(=O)[C@H](Cc1ccccc1)NC(=O)OC(C)(C)C |  | 4.12 µM
CSCC[C@H](NC(=O)[C@H](CO)N(Cc1ccccc1)C(=O)[C@H](Cc1ccccc1)NC(=O)OCC1c2ccccc2-c2ccccc21)C(=O)NC(C)(C)C |  | 1.17 µM
CC1(C)CC[C@]2(C(=O)O)CC[C@]3(C)C(=CCC4[C@@]5(C)CC[C@H](OC(=O)CCC(=O)O)C(C)(C)C5CC[C@]43C)C2C1 |  | 4 µM
CC(C)(C)OC(=O)N[C@H](C(=O)NCC[C@@H](CO)NC(=O)[C@@H](NC(=O)OC(C)(C)C)C(O)c1ccccc1)C(O)c1ccccc1 |  | 1.38 µM
C[C@H]1[C@H](C)CC[C@]2(C(=O)O)CC[C@]3(C)C(=CC[C@@H]4[C@@]5(C)CC[C@H](OC(=O)CCC(=O)O)C(C)(C)[C@@H]5CC[C@]43C)[C@H]12 |  | 6 µM
CC1(C)CC[C@]2(C(=O)O)CC[C@]3(C)C(=CCC4[C@@]5(C)CC[C@H](OC(=O)CCC(=O)O)C(C)(C)C5CC[C@]43C)C2C1 |  | 4 µM
COc1cc(C)c(S(=O)(=O)NC(N)=NCCC[C@H](NC(=O)OCC2c3ccccc3-c3ccccc32)C(=O)O)c(C)c1C |  | 66 µM

For reference, 4 entries again:

{"SMILES": "CC(C)(C)OC(=O)N[C@@H](Cc1ccc2ccccc2c1)C(=O)NCC[C@@H](CO)NC(=O)[C@H](Cc1ccc2ccccc2c1)NC(=O)OC(C)(C)C", "result": ">5 µM"}
{"SMILES": "COc1cc(C)c(S(=O)(=O)NC(N)=NCCC[C@H](NC(=O)OCC2c3ccccc3-c3ccccc32)C(=O)O)c(C)c1C", "result": "66 µM"}
{"SMILES": "CC(C)(C)OC(=O)N[C@H](C(=O)NCC[C@@H](CO)NC(=O)[C@@H](NC(=O)OC(C)(C)C)C(O)c1ccccc1)C(O)c1ccccc1", "result": "1.38 µM"}
{"SMILES": "Nc1ccc(C[C@H](NC(=O)OCC2c3ccccc3-c3ccccc32)C(=O)NCC[C@@H](CO)NC(=O)[C@H](Cc2ccc(N)cc2)NC(=O)OCC2c3ccccc3-c3ccccc32)cc1", "result": ">5 µM"}

ICn: concentration for n% inhibition. An empty or dashed field is not shown.